# The entries are a selection whose mix differs from that of the whole data set. Results filed as inconclusive are left out. The source made the active and inactive calls. No stated cut-off is given here; in the data, active means activity change below about -60%; inconclusive means no clear call, values can overlap the other calls; inactive means above about -39%.
# Assay: qHTS Assay for inhibitors of the human cytomegalovirus (HCMV)
# Settings: HFF cells, HCMV-luciferase reporter, 72 h; at 57.5 µM; hits give low values
# Text: NCGC Assay Overview: Infection with human cytomegalovirus (HCMV) continues to pose significant threats for pregnant women and immunocompromised hosts. HCMV causes serious morbidity and mortality in transplant recipients, and congenital HCMV is the leading infectious cause of mental retardation and deafness in children. In the 1990s, the annual costs associated with the disease burden of congenital CMV were estimated at around $2 billion. A HCMV vaccine is not available yet and HCMV therapies result in intolerable side effects and emergence of drug resistant viruses. […] Towards this goal we have developed and characterized a luciferase HCMV reporter that was initially used in 96 well plates and then optimized to 1536-well plates for utilization in screening of the MLSMR collection, the NGCG diversity collection and the NCGC Pharmaceutical Collection of approved and investigational drugs.
# NCGC Assay Protocol Summary:
# This is a cell-based assay for HCMV inhibition in HFFs cells. The screening used 2 compound doses and the HCMV-luciferase at MOI of 1 PFU/cell. Cells were treated and infected with HCMV. At 72 h post infection cell lysates were collected and luciferase activity was determined using the Glomax-Multi + Detection System (Promega, Madison, WI). Data were normalized to the controls for basal activity (buffer only) and known HCMV inhibitors Salinmoycin.
# 1536-well assay protocol for the assay:
# (1) Add 3 ul CMV/HFF cell culture. 1000 cells/well in DMEM nirmal media.
# (2) Incubate 16 hr at 37C.
# (3) Add 23 nl control compound, 10uM of Salinomycin.
# (4) Add 23 nl compounds in DMSO solution.
# (5) Add 3 ul CMV suspension. Final 1 puf/ul, Virus stock 2000pfu/ul
# (6) Incubate 72 hrs at 37C.
# (7) Add 4 ul OneGlo Luc Reagent.
# (8) Incubate 5 min at room temperature.
# On the % scale 0 is the no-effect control and ±100 the full control effect.
row,SMILES,"activity change, negative = inhibition"
1,O=C(OC1CN2CCC1CC2)c1cccc([N+](=O)[O-])c1 (stereo not drawn),inactive: 12.9%
2,CCOC(=O)c1ccc(NC(=O)C(C)(CCl)SC)cc1 (stereo not drawn),inactive: 70.3%
3,CCC(C)N(CC(C)C)C(=S)SC(NC(C)=O)C(Cl)(Cl)Cl (stereo not drawn),inactive: -30.8%
4,COC(=O)C1(C)COP(=O)(N2CCCC2)OC1 (stereo not drawn),inactive: 5.68%
5,O=C(COc1ccccc1)OC1CN2CCC1CC2 (stereo not drawn),inactive: 95.8%
6,O=C(Nc1ccncc1[N+](=O)[O-])c1ccc([N+](=O)[O-])cc1[N+](=O)[O-],active: -73.9%
7,CCOC(=O)Nc1cccc([As](=O)(O)O)c1,inactive: 8.81%
8,O=P(Nc1ccccn1)(c1cccc2ccccc12)c1cccc2ccccc12,inactive: -18.3%
9,Cc1cc(SC(NC=O)C(Cl)(Cl)Cl)ncn1 (stereo not drawn),inactive: 1.13%
10,O=[N+]([O-])c1ccc(Nc2ccc(Oc3ccc([N+](=O)[O-])cc3[N+](=O)[O-])cc2)c([N+](=O)[O-])c1,inactive: -7.57%
11,O=C(O)C(O)c1ccc(N(CCCl)CCCl)cc1 (stereo not drawn),inactive: 5.24%
12,CC1CCNP(=O)(N(CCCl)CCCl)O1 (stereo not drawn),inactive: 17.5%
13,COP(=O)(OC)N1CC1c1ccccc1 (stereo not drawn),inactive: -5.89%
14,CCCCOc1ccc(C(=O)NCC2(N3CCCCC3)CCCCC2)cc1OC,inactive: 4.47%
15,Cc1cc(SC(NC(=O)c2ccccc2)C(Cl)(Cl)Cl)nc(C(C)C)n1 (stereo not drawn),inactive: -37.4%
16,Cc1ccc(S(=O)(=O)N(CCCN)CCCc2c(C)nc(N)[nH]c2=O)cc1,inactive: 38.8%
17,O=P1(Nc2ncccn2)COc2ccccc2OC1,inactive: -6.55%
18,Nc1cccc([As](=O)(O)c2ccccc2)c1,inactive: -31.3%
19,O=P1(Nc2ccc(Br)cn2)COc2ccccc2OC1,inactive: -15.8%
20,Cc1ccc(OCC(=O)OC2CN3CCC2CC3)cc1 (stereo not drawn),inactive: -9.59%
21,Cc1nn(-c2ccccc2)c2c1P(=O)(N1CCOCC1)N(C)C(c1ccccc1)=N2 (stereo not drawn),inactive: -5.18%
22,CC1CCC(C(C)C)C(OP(=O)(Nc2ccccn2)c2ccccc2)C1 (stereo not drawn),inactive: -22%
23,Cc1ccc(C(=O)OC2CN3CCC2CC3)cc1 (stereo not drawn),inactive: 22.8%
24,CN(C)C1(CNC(=O)c2ccc(S(C)(=O)=O)cc2)CCCCC1,inactive: -4.22%
25,O=C(/C=C/c1ccccc1)OC1CN2CCC1CC2 (stereo not drawn),inactive: 10.9%
26,CCCC1OP(=O)(Nc2ccccc2)OCC1CC (stereo not drawn),inactive: -32%
27,COc1ccccc1CNC(=O)COC(=O)C(O)(c1ccccc1)c1ccccc1,inactive: 10.7%
28,CC(C)/C=N\N=C(\N)N[N+](=O)[O-],inactive: 2.98%

# From PubChem BioAssay AID1259415 (National Center for Advancing Translational Sciences (NCATS), 2018)
